Pooled drug test results. Numbers come from NIAID ChemDB, via PubChem.

Common to all: whole-cell or culture tests; organism: Hepatitis B virus; cells: HepG2.117; read by: PCR; read-out: EC50

Blank or dashed fields: not listed here. a–b is a range or a potency band. ECn is the concentration giving n% inhibition of infection, replication or growth. Neighbouring rows are from separate reports.

{"compound": "O=C(c1ccc(Cl)c(Cl)c1)N1CCc2c(n3ncc(Cc4ccccc4)c3n(-c3ccccc3)c2=O)C1", "setting": "3 d", "value": "<0.1 µM"}
{"compound": "C[C@@H](NC(=O)c1c2n(c(=O)n1-c1ccc(OC3CC3)cc1)CCN(C(=O)c1ccc(Br)c(Cl)c1)C2)c1cccc2nccnc12", "value": "0.1–0.5 µM"}
{"compound": "C[C@@H]1Cc2nn3c(c2CN1C(=O)c1ccc(Cl)c(C#N)c1)C(=O)N([C@@H](C)c1cccc(C(F)(F)F)c1)CC3", "value": "0.044 µM"}
{"compound": "Cc1cc(C)n(-c2nc3c(c(=O)n2-c2ccc(NC[C@@H](O)CO)nc2)C[C@@H](C)N(C(=O)c2ccc(Br)c(C(F)(F)F)c2)C3)n1", "strain": "Genotype D", "value": "0.05–0.5 µM"}
{"compound": "CNC(=O)c1ccc(-n2c(=O)c3c(n4ncc(Cc5ccccc5)c24)CN(C(=O)c2ccc(Br)c(C#N)c2)[C@H](C)C3)cc1", "setting": "3 d", "value": "<0.1 µM"}
{"compound": "Cc1c(C(=O)N2Cc3c(nn4c3C(=O)N([C@@H](C)c3ccc(OC(F)F)cc3)CC4)C[C@H]2C)ccc(Cl)c1C#N", "value": "0.083 µM"}
{"compound": "O=C(c1ccc(Br)c(Cl)c1)N1CCc2c(n3ncc(Cc4ccccc4)c3n(-c3ccc(-n4cccn4)cc3)c2=O)C1", "setting": "3 d", "value": ">5 µM"}
{"compound": "NC(=O)COc1ccc(CNC(=O)c2c3n(c(=O)n2-c2ccc(OC4CC4)cc2)CCN(C(=O)c2ccc(Br)c(Cl)c2)C3)c(F)c1", "value": "0.1–0.5 µM"}
{"compound": "C=C[C@H](C)Nc1nc2c(c(=O)n1-c1ccc(C(=O)N(C)C(=O)OCOC(=O)C[C@H](O)C(=O)O)cc1)C[C@@H](C)N(C(=O)c1ccc(Br)c(C(F)(F)F)c1)C2", "strain": "Genotype D", "value": "<0.05 µM"}
{"compound": "O=C(c1ccc(Br)c(F)c1)N1CCc2c(n3ncc(Cc4ccccc4)c3n(-c3ccccc3)c2=O)C1", "setting": "3 d", "value": "0.1–0.5 µM"}
{"compound": "CC(C)Oc1ccc(-n2c(C(=O)NCc3ccccc3C(N)=O)c3n(c2=O)CCN(C(=O)c2ccc(Br)c(Cl)c2)C3)cc1", "value": ">5 µM"}
{"compound": "C=C[C@H](C)Nc1nc2c(c(=O)n1-c1ccc(C(=O)N(C)C(=O)OCOC(=O)[C@H](N)C(C)C)cc1)C[C@@H](C)N(C(=O)c1ccc(Br)c(C(F)(F)F)c1)C2", "strain": "Genotype D", "value": "<0.05 µg/mL"}
{"compound": "Cc1cc(C)n(-c2nc3c(c(=O)n2-c2ccc(OC[C@H](O)CO)cc2)C[C@@H](C)N(C(=O)c2ccc(Br)c(C(F)(F)F)c2)C3)n1", "strain": "Genotype D", "value": "≤0.05 µM"}
{"compound": "C[C@@H]1Cc2nn3c(c2CN1C(=O)c1ccc(Cl)c(C#N)c1)C(=O)N(Cc1ccc2c(c1)OC(F)(F)O2)CC3", "value": "0.058 µM"}
{"compound": "Cc1cc(C)n(-c2nc3c(c(=O)n2-c2ccc(NC[C@@H](C)O)nc2)C[C@@H](C)N(C(=O)c2ccc(Br)c(C(F)(F)F)c2)C3)n1", "strain": "Genotype D", "value": "≤0.05 µM"}
{"compound": "O=C(NCc1ccccc1)c1c2n(c(=O)n1-c1ccc3sccc3c1)CCN(C(=O)c1ccc(Br)c(Cl)c1)C2", "value": "0.1–0.5 µM"}
{"compound": "Cc1cc(C)n(-c2nc3c(c(=O)n2-c2ccc(-c4cnn(C)c4)cc2)C[C@@H](C)N(C(=O)c2ccc(Br)c(C(F)(F)F)c2)C3)n1", "strain": "Genotype D", "value": "≤0.05 µM"}
{"compound": "NC(=O)c1ccc(-n2c(=O)c3c(n4ncc(Cc5ccccc5)c24)CN(C(=O)c2ccc(Br)c(Cl)c2)CC3)cc1", "setting": "3 d", "value": "0.5–5 µM"}
{"compound": "C=C[C@H](C)Nc1nc2c(c(=O)n1-c1ccc(C(=O)N(C)C(=O)OCOC(=O)[C@@H](N)C(C)C)cc1)C[C@@H](C)N(C(=O)c1ccc(Br)c(C(F)(F)F)c1)C2", "strain": "Genotype D", "value": "<0.05 µM"}
{"compound": "Cc1cc(C)n(-c2nc3c(c(=O)n2-c2ccc(OCC(N)=O)cc2)C[C@@H](C)N(C(=O)c2ccc(Br)c(C(F)(F)F)c2)C3)n1", "strain": "Genotype D", "value": "≤0.05 µM"}
{"compound": "COc1ccc(-n2c(C(=O)Nc3ccc(OC)cc3OC)c3n(c2=O)CCN(C(=O)c2ccc(Br)c(Cl)c2)C3)cc1", "value": "<0.1 µM"}
{"compound": "CNC(=O)c1ccc(-n2c(=O)c3c(n4ncc(Cc5ccc(OC)cc5)c24)CN(C(=O)c2ccc(Br)c(Cl)c2)CC3)cc1", "setting": "3 d", "value": "<0.1 µM"}
{"compound": "C=C[C@H](C)Nc1nc2c(c(=O)n1-c1ccc(C(=O)N(C)C(=O)O[C@@H](C)OC(=O)[C@@H](N)C(C)C)cc1)C[C@@H](C)N(C(=O)c1ccc(Br)c(C(F)(F)F)c1)C2", "strain": "Genotype D", "value": "<0.05 µM"}
{"compound": "C[C@@H]1Cc2nn3c(c2CN1C(=O)c1ccc(Cl)c(C#N)c1)C(=O)N([C@@H](C)c1ccnc(C(F)(F)F)c1)CC3", "value": "0.196 µM"}
{"compound": "Cc1cc(C)n(-c2nc3c(c(=O)n2-c2ccc(OC[C@@H](C)O)cc2)C[C@@H](C)N(C(=O)c2ccc(Br)c(C(F)(F)F)c2)C3)n1", "strain": "Genotype D", "value": "≤0.05 µM"}
{"compound": "O=C(c1ccc(Br)c(Cl)c1)N1CCc2c(n3nccc3n(Cc3ccccc3)c2=O)C1", "setting": "3 d", "value": "0.5–5 µM"}
{"compound": "C[C@@H]1Cc2nn3c(c2CN1C(=O)c1ccc(Cl)c(C#N)c1)C(=O)N([C@@H](C)c1ccc2c(c1)OC(F)(F)O2)CC3", "value": "0.41 µM"}
{"compound": "Cc1cc(C)n(-c2nc3c(c(=O)n2-c2ccc(N4CC[C@@H](O)C4)nc2)C[C@@H](C)N(C(=O)c2ccc(Br)c(C(F)(F)F)c2)C3)n1", "strain": "Genotype D", "value": "≤0.05 µM"}
{"compound": "O=C(NCc1ccccc1)c1c2n(c(=O)n1-c1ccc(N3CCOCC3)cc1)CCN(C(=O)c1ccc(Br)c(Cl)c1)C2", "value": "0.1–0.5 µM"}
{"compound": "C[C@@H]1Cc2nn3c(c2CN1C(=O)c1ccc(Cl)c(C#N)c1Cl)C(=O)N([C@H](C)c1ccc(OC(F)F)cc1)CC3", "value": "0.073 µM"}
{"compound": "Cc1cc(C)n(-c2nc3c(c(=O)n2-c2ccc4c(c2)ncn4CC(F)F)C[C@@H](C)N(C(=O)c2ccc(Br)c(C(F)(F)F)c2)C3)n1", "strain": "Genotype D", "value": "≤0.05 µM"}

The first 3 rows once more:

compound,strain,setting,value
O=C(c1ccc(Cl)c(Cl)c1)N1CCc2c(n3ncc(Cc4ccccc4)c3n(-c3ccccc3)c2=O)C1,-,3 d,<0.1 µM
C[C@@H](NC(=O)c1c2n(c(=O)n1-c1ccc(OC3CC3)cc1)CCN(C(=O)c1ccc(Br)c(Cl)c1)C2)c1cccc2nccnc12,-,-,0.1–0.5 µM
C[C@@H]1Cc2nn3c(c2CN1C(=O)c1ccc(Cl)c(C#N)c1)C(=O)N([C@@H](C)c1cccc(C(F)(F)F)c1)CC3,-,-,0.044 µM